Measurements reported in patent US20220153815A1, “Compounds specific to coronavirus s protein and uses thereof” (published 2022).
Where two headings read alike, the source gives them in different places.

B1: ADI-56046 (antibody, V domains shown)
VH: not shown
VL: not shown
B2: ADI-55689 (antibody, V domains shown)
VH: not shown
VL: not shown

How the values were obtained:
[1] = target: T1, recombinant prefusion-stabilized SARS-CoV S protein (prefusion S ectodomain) (SARS-CoV, UniProt P59594 14-1195)
AVID SARS-CoV-2 S1 = experiment: BLI; avid
Monovalent SARS-CoV-2 S1 = experiment: BLI; monovalent
[2] = target: T1, recombinant prefusion-stabilized …; remark: listed apart in the source
SARS-CoV-2 S1 [3] = experiment: BLI; avid
SARS-CoV-2 S1 [4] = experiment: BLI; monovalent

| Binder | Kd [1] [nM] | Kd (AVID SARS-CoV-2 S1) [nM] | Kd (Monovalent SARS-CoV-2 S1) [nM] | Kd [2] [nM] | Kd (SARS-CoV-2 S1 [3]) [nM] | Kd (SARS-CoV-2 S1 [4]) [nM] |
| --- | --- | --- | --- | --- | --- | --- |
| B1 | 1.03 | 0.328 | 3.31 |  |  |  |
| B2 |  |  |  | 0.613 | 0.603 | 21.2 |
